“And” between values parts separate entries of the source, which are not always exact repeats. Equal values may be shown once. Read-outs that look alike come from different tables or passages of the source.
Assays:
[1] = molecular target: SARS-COV-2 RBD extracellular domain expressed with a C-terminal mouse IgG2a (SARS-COV-2 RBD-mFc) (SARS-CoV-2); assay: SPR Biacore, mAb captured on anti-human Fc, RBD-mFc in solution, 37 C
[2] = molecular target: T1, SARS-CoV-2-S RBD extracellular domain expressed with a C-terminal myc-myc-hexahistidine tag (SARS-COV-2 … (SARS-CoV-2))
[3] = molecular target: T1, SARS-CoV-2-S RBD extracellular domain …; assay: SPR Biacore T200, 37 C
[4] = molecular target: SARS-COV-2-S RBD extracellular domain expressed with a C-terminal myc-myc-hexahistidine (SARS-COV-2 RBD-MMH) (SARS-CoV-2)
[5] = molecular target: T2, SARS-COV-2-S RBD extracellular domain expressed with a C-terminal myc-myc-hexahistidine (SARS-COV-2 RBD-MMH) (SARS-CoV-2); assay: SPR Biacore T200, 37 C, ratio of dissociative half-lives at pH 7.4 and pH 5.0
[6] = molecular target: T2, SARS-COV-2-S RBD extracellular domain …; remark: listed apart in the source
[7] = molecular target: SARS-COV-2-S RBD extracellular domain expressed with a C-terminal myc-myc-hexahistidine (SARS-COV-2 RBD-MMH) (SARS-CoV-2); remark: listed apart in the source
[8] = molecular target: T3, VLPs expressing VSV only (negative binding control) (vesicular stomatitis virus); assay: MSD electrochemiluminescence, control VLPs on plate, mAb 5.5 nM, expt 3
[9] = molecular target: T3, VLPs expressing VSV only (negative …); assay: MSD electrochemiluminescence, control VLPs on plate, mAb […], expt 3
[10] = molecular target: Bt-SARS-CoV-2 Spike Protein (RBD)(R319-F541).mFc (SARS-CoV-2); assay: Luminex bead assay, antibody supernatant, biotinylated antigen on microspheres
[11] = molecular target: Bt-SARS-CoV-2 Spike Protein (RBD)(R319-F541).hFc (SARS-CoV-2); assay: as above
[12] = molecular target: SARS-CoV-2 Spike Protein (RBD)(R319-F541).mFc (SARS-CoV-2); assay: Luminex bead assay, antibody supernatant, antigen on microspheres

B1: mAb10922 (antibody, V domains shown)
VH: EVQLVESGGGLVQPGGSLRLSCAASGFTFSIYEMNWVRQAPGKGLEWVSYITSSGTTIYYADSVKGRFTISRDNAKNSLYLQMNSLRAEDTAVYYCASSSSSGYYFDYWGQGTLVTVSS
VL: not shown
Work on B1 yielded a koff [1] of 0.00016 s⁻¹ and a kon [1] of 4.6e+06 M⁻¹ s⁻¹.

B2: mAb10922 (antibody, V domains shown)
VH: EVQLVESGGGLVQPGGSLRLSCAASGFTFSIYEMNWVRQAPGKGLEWVSYITSSGTTIYYADSVKGRFTISRDNAKNSLYLQMNSLRAEDTAVYYCASSSSSGYYFDYWGQGTLVTVSS
VL: not shown
For B2, the koff [2] was 0.00907 s⁻¹ and 0.00961 s⁻¹, the “t½” value [2] was 1.3 min and the “t½ Ratio pH 7.4/pH 6.0” value [3] was 1.1.

B3: mAb10985 (antibody, V domains shown)
VH: EVQLVESGGGLVQPGRSLRLSCAASGFTFDDYAMHWVRQAPGKGLEWVSGISWNRGSIGYADSVKGRFTISRDNAKNSLYLQMSSLRAEDTALYYCAKDGERWDSVVVPSARNGMDVWGQGTTVTVSS
VL: QSVLTQPPSVSGAPGQRVTISCTGSSSNIGAGYDVHWYQQLPGTAPKLLIYGNSNRPSGVPDRFSGSKSGTSASLAITGLQAEDEADYYCQSYDSSLSGSYVFGTGTKVTVLG
B3 was tested, and the “t½” value [4] was 3.2 min and 3.6 min.

B4: mAb10966 (antibody, V domains shown)
VH: EVQLVESGGGLVQPGGSLRLSCAASGLTVSSNYMSWVRQAPGKGLEWVSVIYSGGSTFYADSVKGRFTISRDNSKNTLYLQMNSLRPEDTAVYYCAREGRIAATGYGMDVWGQGTTVTVSS
VL: DIQMTQSPSSLSASVGDRVTITCQASQDISNYLNWYQQKPGKAPKLLIYDASNLGTGVPSRFSGSRSGTDFTFTISSLQPEDIATYYCHQYDNLPQTFGPGTKVDIKR
With B4 the “t½” value [4] was 7.2 min and 8.2 min.

B5: mAb10922 (antibody, V domains shown)
VH: EVQLVESGGGLVQPGGSLRLSCAASGFTFSIYEMNWVRQAPGKGLEWVSYITSSGTTIYYADSVKGRFTISRDNAKNSLYLQMNSLRAEDTAVYYCASSSSSGYYFDYWGQGTLVTVSS
VL: not shown
With B5 the “t½ Ratio pH 7.4/pH 5.0” value [5] was 0.9, the koff [6] was 0.00907 s⁻¹ and 0.00808 s⁻¹ and the t½ [6] was 1.3 min and 1.4 min.

B6: mAb10985 (antibody, V domains shown)
VH: EVQLVESGGGLVQPGRSLRLSCAASGFTFDDYAMHWVRQAPGKGLEWVSGISWNRGSIGYADSVKGRFTISRDNAKNSLYLQMSSLRAEDTALYYCAKDGERWDSVVVPSARNGMDVWGQGTTVTVSS
VL: QSVLTQPPSVSGAPGQRVTISCTGSSSNIGAGYDVHWYQQLPGTAPKLLIYGNSNRPSGVPDRFSGSKSGTSASLAITGLQAEDEADYYCQSYDSSLSGSYVFGTGTKVTVLG
In the case of B6, the t½ [7] is reported as 3.2 min and 3.4 min.

B7: mAb10966 (antibody, V domains shown)
VH: EVQLVESGGGLVQPGGSLRLSCAASGLTVSSNYMSWVRQAPGKGLEWVSVIYSGGSTFYADSVKGRFTISRDNSKNTLYLQMNSLRPEDTAVYYCAREGRIAATGYGMDVWGQGTTVTVSS
VL: DIQMTQSPSSLSASVGDRVTITCQASQDISNYLNWYQQKPGKAPKLLIYDASNLGTGVPSRFSGSRSGTDFTFTISSLQPEDIATYYCHQYDNLPQTFGPGTKVDIKR
With B7 the t½ [7] was 7.2 min and 9.2 min.

B8: mAb10920 (antibody, V domains shown)
VH: QVQLVESGGGVVQPGRSLRLSCAASGFTFSYYGMHWVRQAPGKGLEWVAVIWYDGSNKFYADSVKGRFTISRDNSKNTLYLQMNSLRAEDTAVYYCAAARPGYYYGMDVWGQGTTVTVSS
VL: DIQMTQSPSSLSASVGDRVTITCRASQGISNYLAWFQQKPGKAPNSLIYAASSLQRGVPSKFSGSGSGTDFTLTISSLQPEDFATYYCQQYNSYPRTFGQGTKVEIKR
B8 was tested, and the “Antibody Binding Signal (RLU)” value [8] was 2540 RLU and the “Antibody Binding Signal (RLU)” value [9] was 102 RLU.

B9: mAb10922 (antibody, V domains shown)
VH: EVQLVESGGGLVQPGGSLRLSCAASGFTFSIYEMNWVRQAPGKGLEWVSYITSSGTTIYYADSVKGRFTISRDNAKNSLYLQMNSLRAEDTAVYYCASSSSSGYYFDYWGQGTLVTVSS
VL: not shown
With B9 the “Binding signal (MFI)” value [10] was 18600 MFI and the “Binding signal (MFI)” value [11] was 27900 MFI.

B10: mAb10938 (antibody, V domains shown)
VH: EVQLVESGGGLVQPGGSLRLSCAVSGFTVSSNYMSWVRQAPGKGLEWVSLIYSGGSTFYADSVKGRFTISRHNSKNTLYLQMNSLRAEDTAVYYCAREGGYSYDYNYWGQGTLVTVSS
VL: DIQMTQSPSSLSASVGDRVTITCQASQDIRNYLNWYQQKPGKAPKLLIYDASNLETGVPSRFSGIGSGTDFTFTISSLQPEDIATYYCQQYDNLPITFGQGTRLEIKR
In the case of B10, the “Binding signal (MFI)” value [11] is reported as 24600 MFI and the “Binding signal (MFI)” value [12] is reported as 30500 MFI.
